According to paper PMC11993163:

What was measured:
[1] = target: PfNPM A1 (residues 1-110, up to A1 acidic tract) (Plasmodium falciparum) (UniProt C0H4U4); assay: pull-down
[2] = target: PfNPM A3 (residues 1-170, up to A3 acidic tract) (Plasmodium falciparum) (UniProt C0H4U4); assay: pull-down

Substance: assembled H2A/H2B dimer (from UniProt P06897 1-130; P02281 1-126) (complex)
- highest NaCl concentration at which the complex was stable [1]: 400 mM NaCl
- highest NaCl concentration at which the complex was stable [2]: 400 mM NaCl
